PubChem BioAssay AID504832 (National Center for Advancing Translational Sciences (NCATS), 2011)
The list shows a part of the results, in another mix than the full data. Inconclusive results are not listed. Some salts or complexes appear as unconnected parts, following the source record. Calls of active or inactive are those of the source. The call rests on the fitted dose curve; in most records, active means well fitted inhibition curve with a large enough effect; inconclusive means small, poorly fitted or top-dose-only effect, or another doubt; inactive means no such curve, though single readings can be large or run the other way.

Experiment: Primary qHTS for delayed death inhibitors of the malarial parasite plastid, 48 hour incubation
Details: P. falciparum luciferase growth in erythrocytes; at 28.7 µM (top of the series)
Excerpt: The goal of this screen is to discover new antimalarial compounds that act by inhibiting the development of the apicoplast in the malarial parasite Plasmodium falciparum. The biochemical processes that make this organelle essential for erythrocytic stage parasites are not well understood. However, antibiotics such as azithromycin and tetracycline, which target the apicoplast translational machinery, have a potent antimalarial effect.
We have developed a cell-based assay that measures parasite growth based on the expression of an integrated copy of a firefly luciferase reporter. To detect small molecules that cause this "delayed death" phenotype, erythrocytes infected with the luciferase-expressing parasites were incubated with compounds for either one or two generations, corresponding to 48 and 96 hours, respectively. Compounds that inhibit parasite growth in the second generation, but not the first, should be enriched in antimalarials that target the apicoplast. Growth inhibition is detected by a decrease in luciferase activity.
Assay Provider: David Fidock and Eric Ekland, Columbia University
Keywords: NIH Roadmap, MLPCN, MLI, MLSMR, qHTS, NCGC, qHTS, malaria, luciferase, viability
Four microliters of culture medium (RPMI 1640 with 0.5% w/v Albumax (GIBCO), 24 mM sodium bicarbonate and 10 ug/mL gentamycin) were dispensed by a Multi-drop Combi into white solid 1536-well plates (Grenier) and 23 nL compound was added by a pin tool. Four microliters of infected erythrocytes (2% hematocrit, 0.1% parasitemia final concentration) in culture medium were dispensed and the plates incubated for 48 hours at 37 C in 5% CO2. Two microliters of luciferase detection reagent was added and luminescence was detected by a ViewLux (PerkinElmer) reader.
On the % scale 0 is the no-effect control and ±100 the full control effect.

Structure (SMILES) | activity change, negative = inhibition
O=[N+]([O-])c1cc([N+](=O)[O-])c(OC2CCCCC2O)c([N+](=O)[O-])c1 (configuration not stated) | inactive: 16.2%
O=C(OC1CN2CCC1CC2)c1ccc([N+](=O)[O-])cc1 (configuration not stated) | inactive: 11.7%
COc1ccc2c(c1O)-c1c(O)c(OC)cc3c1[C@H](C2)[N+](C)(C)CC3.O=[N+]([O-])c1cc([N+](=O)[O-])c([O-])c([N+](=O)[O-])c1[O-] | inactive: -7.16%
O=[N+]([O-])c1cc([N+](=O)[O-])c(NCC2CCS(=O)(=O)C2)c([N+](=O)[O-])c1 (configuration not stated) | inactive: 42.5%
CCOC(=O)C(CC)C1=NC(C)(C)Cc2ccccc21.O=[N+]([O-])c1cc([N+](=O)[O-])c(O)c([N+](=O)[O-])c1 (configuration not stated) | inactive: 63.3%
N/C(=N\O)c1c(N)no[n+]1[O-] | inactive: 2.94%
O=C(O)c1cccc(Nc2c([N+](=O)[O-])cc([N+](=O)[O-])cc2[N+](=O)[O-])c1 | inactive: -1.51%
